Laboratory results taken from patent publication US20250382354A1.

Experiments:
Assay in all cases: cell-based or functional assay
[1] = molecular target: C-terminally truncated SARS-CoV-2 S protein, Alpha (SARS-CoV-2 Alpha)
[2] = molecular target: C-terminally truncated SARS-CoV-2 S protein, Beta (SARS-CoV-2 Beta)
[3] = molecular target: C-terminally truncated SARS-CoV-2 S protein, Delta (SARS-CoV-2 Delta)
[4] = molecular target: C-terminally truncated SARS-CoV-2 S protein, Gamma (SARS-CoV-2 Gamma)
[5] = molecular target: C-terminally truncated SARS-CoV-2 S protein, Omicron BA.1 (SARS-CoV-2 Omicron BA.1)
[6] = molecular target: C-terminally truncated SARS-CoV-2 S protein, Omicron BA.2 (SARS-CoV-2 Omicron BA.2)
[7] = molecular target: C-terminally truncated SARS-CoV-2 S protein, Omicron BA.2.75 (SARS-CoV-2 Omicron BA.2.75)
[8] = molecular target: C-terminally truncated SARS-CoV-2 S protein, Omicron BA.2.75.2 (SARS-CoV-2 Omicron BA.2.75.2)

Substance | Alpha Pseudovirus IC50 [1] [µg/mL] | Beta Pseudovirus IC50 [2] [µg/mL] | Delta Pseudovirus IC50 [3] [µg/mL] | Gamma Pseudovirus IC50 [4] [µg/mL] | Omicron BA.1 Pseudovirus IC50 [5] [µg/mL] | Omicron BA.2 Pseudovirus IC50 [6] [µg/mL] | Omicron BA.2.75 Pseudovirus IC50 [7] [µg/mL] | Omicron BA.2.75.2 Pseudovirus IC50 [8] [µg/mL]
CV3-25 (antibody) | 0.468 | 0.364 | 0.497 | 0.147 | 1.33 | 0.806 | 1.68 | 2.47
S2P6 (antibody) |  |  |  | 0.471 | 29.4 | 49.3 | 69 | 59.9
